## Share of PSTVd loop 6 variants by leaf site

Values reported by Wu et al. 2024 (doi:10.1371/journal.ppat.1012142).

The pool varies loop 6 of the PSTVd intermediate strain in the pattern UNNNCGNNNG; wild type is UGACCGCGAG (upper and lower strand joined, each 5' to 3', the first 5 letters being the upper strand, closing pairs included).

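A pool of all variants was put on leaves of three Nicotiana benthamiana plants. Progeny were sequenced from the inoculated region (day 5), the margin of the inoculated leaf (day 10) and systemic leaves (day 12).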

Values are reads per thousand in the sample; higher means more abundant, 0 means not found. Each site shows the three plants. "Pool" is the share in the plasmid pool used as inoculum, on the same scale. The inoculated region was read from the minus strand, the other sites from the plus strand. Samples held 36,220 to 57,551 reads, so the smallest values rest on one or two reads. The authors trace changes outside the varied positions to PCR and sequencing errors or to mutation in the plant; presence does not show that a variant is infectious alone. Wild type was 20.7 per thousand in the pool and the most common sequence in every sample (inoculated region 195, 198, 203; leaf margin 629, 591, 734; systemic leaves 942, 870, 868).

sequence	pool	inoculated region	leaf margin	systemic leaves
UAUUCGAACG	0.222	0.122 0.144 0.0738	0 0 0.0232	0 0 0
UCGCCGGCAG	0.183	0.0348 0.0359 0	0 0 0	0 0 0
UACUCGUAAG	0.222	0.156 0.0180 0.0738	0 0 0	0 0 0
UUGCCGCCAG	0.105	0.139 0.0359 0.0738	0 0 0	0 0 0
UCCACGACUG	0.275	0.0695 0.108 0.0738	0 0 0	0 0 0.0205
UGGGCGAAUG	0.261	0.0521 0.0539 0.0922	0 0 0	0 0 0
UCGACGGCAG	0.131	0.0695 0.0539 0.0553	0.0276 0 0.0232	0 0 0
UGGCCGUGAG	0.222	0.765 0.611 0.682	0.138 0.101 0.0232	0 0.0404 0.0410
UAGCCUGUUG	0.0131	0 0 0	0 0 0	0 0 0
UACGCGGGAG	0.222	0.0695 0.0898 0.0184	0 0 0	0 0 0
UGCUCGCUGG	0.170	0.122 0.0359 0.0738	0 0 0.0232	0 0 0
UGGCCGCACG	0.170	0.209 0.216 0.184	0.0552 0 0	0 0 0
UCAACGUAUG	0.379	0.191 0.108 0.0922	0.359 0 0	0 0 0
UACUCGUCUG	0.275	0.0348 0.0719 0.0553	0 0 0	0 0 0
UGUGCGUCCG	0.209	0.0869 0.0359 0.129	0.0276 0 0	0 0 0
UUAUCGUAAG	0.0915	0.104 0.0539 0.0553	0 0 0.0232	0 0 0
UCUCCGCUAG	0.183	0.104 0.0898 0.0738	0.0276 0 0	0 0 0
UGGACGGGAG	0.196	0.556 0.593 0.756	0.248 0.227 0.139	0.0359 0.141 0.0820
UCGCCGAGUG	0.235	0.122 0.0719 0.129	0 0 0	0 0 0
UCGCCGCAAG	0.235	0.156 0.108 0.0922	0 0 0.0232	0 0 0
UGCACGGCCG	0.209	0.0348 0.108 0.0553	0 0 0.0232	0 0 0
UGAACGACGU	0.0131	0 0 0	0 0 0	0 0 0
UUACCGGUAG	0.275	0.0695 0.108 0.148	0 0 0	0 0 0
UUGGCGGUUG	0.353	0.0348 0.0539 0.0922	0 0 0	0 0 0
UUAACGGAAG	0.131	0.712 4.37 5.66	0.883 1.26 0.835	0.162 0.465 0.595
UAUUCGAUCG	0.235	0.156 0.126 0.0553	0 0 0	0 0 0
UACACGUGAG	0.170	0.0521 0.0539 0.0738	0 0 0.0232	0 0 0
UGAUCGCAAG	0.170	0.765 0.629 0.738	0 0.0757 0.116	0 0 0
UAGACGUUCG	0.183	0.156 0.0719 0.0922	0.0276 0 0.0464	0 0 0
UACACGCGAG	0.144	0.122 0.0180 0.0369	0.193 0 0	0 0 0.0205
UAAUCGGUUG	0.248	0.122 0.0539 0.0553	0 0 0	0 0 0
UUGCCGAUGG	0.366	0.226 0.126 0.0369	0.0276 0.0252 0	0 0 0
UGCUCGGUUG	0.353	0.156 0.0898 0.0553	0 0 0	0 0 0
UCUUCGGCUG	0.222	0.122 0.0359 0.0922	0 0.0504 0.0232	0 0 0
UGUGCGUGGG	0.261	0.174 0.0898 0.0738	0 0 0	0 0 0.0205
UGUACGCCUG	0.261	0.0695 0 0.166	0 0 0	0 0 0
UUUCCGAAAG	0.157	0.104 0.108 0.0922	0.0276 0 0	0 0 0
UAUACGAGUG	0.484	0.139 0.269 0.0738	0 0.0757 0.0232	0 0 0
GGACCGUAUG	0.0261	0.0521 0.0359 0	0.0552 0 0	0 0.0202 0
UCUACGCUUG	0.196	0.122 0.0898 0.0553	0.0552 0 0.0232	0 0 0
UCUACGUCAG	0.288	0.243 0.0359 0.0922	0.0552 0 0.0232	0 0 0
UCCCCGAGAG	0.275	0.122 0.144 0.0922	0 0.732 0.0464	0 0 0
UACCCGUCUG	0.196	0.0869 0.0539 0.0738	0 0 0.0464	0 0 0
UUCUCGCAGG	0.248	0.191 0.0898 0.0553	0 0 0	0 0 0
UUGACGCCCG	0.275	0.0869 0.0719 0.0369	0.0276 0 0	0 0 0
UAGCCGUGGG	0.222	0.0869 0.0898 0.0553	0 0 0	0 0 0
UGCCCGUCAG	0.275	0.209 0.144 0.0738	0.0276 0 0.0232	0 0 0
UUUGCGUAAG	0.131	0.156 0.0539 0.0738	0 0 0	0 0 0
UCGUCGUCCG	0.209	0.104 0.0539 0.184	0 0 0	0 0 0
UAACCGGCUG	0.183	0.0174 0.0539 0.0922	0.0276 0 0.0464	0 0 0
UAUCCGAAGG	0.131	0.139 0.126 0.129	0 0 0	0 0 0
UAGGCGGGGG	0.248	0.0869 0.0359 0.111	0 0 0	0 0 0
UAGGCGGCUG	0.196	0.156 0.0539 0.0738	0 0 0.0464	0 0 0
UCCUCGACUG	0.235	0.0695 0.0898 0.0738	0 0 0	0 0 0
UUGACGUACG	0.301	0.139 0.0180 0.0553	0 0 0	0 0 0
UUGGCGGAGA	0.0131	0 0 0	0 0 0	0 0 0
UCUUCGUCGG	0.445	0.0869 0.0719 0.0738	0 0.126 0	0 0 0
UAGUCGGGGG	0.0784	0.139 0.0539 0.0553	0 0 0	0 0 0
UGUACGACUG	0.235	0.122 0.108 0.129	0 0 0	0 0 0